The target of this assay is Cb-cParM, chromosome-encoded ParM of Clostridium botulinum Bf (Clostridium botulinum Bf). Description: co-sedimentation.

In turn, “Cb-cParM, chromosome-encoded ParM of Clostridium botulinum Bf (natural protein)” returned a critical concentration (with ADP) of 1.81 µM, a critical concentration (with ATP) of 0.31 µM, a critical concentration (with GDP) of 1.92 µM and a critical concentration (with GTP) of 0.61 µM.

The values are drawn from publication PMC12270681 (The Journal of Biological Chemistry, 2025).
